Results of unrelated studies side by side (data: NIAID ChemDB).

Shared fields: tests on isolated targets; agent: HIV-1; target: Integrase; measure: IC50

Lines come from different laboratories, so protocols vary. An empty or dashed field is not shown. ICn is the concentration giving n% inhibition. Two numbers with a dash give a range or band.

compound	strain or isolate	conditions	method	mutations	value
O=C(O)c1ccc2ccc(/C=C/c3cc(O)c(O)c(O)c3)nc2c1O			disintegration		1 µM
Cc1cc(S(=O)(=O)Nc2nnc3ccc4ccccc4n23)c(S)cc1Cl					10.4 µM
COc1cc2c(cc1OC)C(=O)N1CSCC1C(=O)S2	RF		3′ processing		650 µM
O=C1OC[C@H]2[C@H](c3ccc(O)c(O)c3)c3cc(O)c(O)cc3C[C@H]12	HXB2		strand transfer		0.3 µM
CCOC(=O)c1cnc(NCCCCCCNc2ncc(C(=O)OCC)c(=O)[nH]2)[nH]c1=O			strand transfer		7.9–16.7 µM
COc1nc(=O)[nH]c2c1C(c1ccc(Cl)cc1)c1c(OC)nc(=O)[nH]c1O2			3′ processing		143.7 µM
CCCCC[C@H]1C(C)=C[C@H]2C[C@@H](C)CC[C@@H]2[C@@]1(C)/C(O)=C1/C(=O)[C@@H](CO)N(C)C1=O			strand transfer		7–15 µM
CC1(C)OC(=O)/C(=C/C(=O)c2c[nH]c3ccc(Br)cc23)O1			strand transfer / fluorescence		11.9 µM
Cc1cc(O)c2c(c1)C(=O)c1cc(O)cc(O)c1C2=O			disintegration		>40 µM
CN1C/C(=C\c2ccc(O)c([N+](=O)[O-])c2)C(=O)/C(=C/c2ccc(O)c([N+](=O)[O-])c2)C1			strand transfer		>100 µM
N=C(N)c1ccc(N=NNc2ccc(C(=N)N)cc2)cc1			3′ processing		>100 µM
C/C(=N\NC(=O)c1ccccc1O)c1cccc(/C(C)=N/NC(=O)c2ccccc2O)n1			strand transfer		16.3–20 µM
C[C@@H]1CCO[C@H]2Cn3cc(C(=O)NCc4ccc(F)cc4F)c(=O)c(O)c3CN12					0.033 µM
CC(C)=CCC[C@H](C)[C@H]1CC[C@]2(C)C[C@H]3[C@H](C(=O)C[C@@]3(C)O)C(C=O)=C[C@@H]12			strand transfer		33 µM
C/C=C/[C@@H]1C=C[C@@H]2C[C@H](C)CC[C@H]2[C@]1(C)/C(O)=C1/C(=O)[C@@H](CO)N(C)C1=O			strand transfer		15–20 µM
COc1cc(C)c2c(c1C)OC(=O)c1c(C)c(Cl)c(O)c(C=O)c1O2			strand transfer		1.9–2.6 µM
C=C1[C@H]2C[C@H]2[C@]2(C)C[C@@H]3OC(=O)C(C)=C3[C@H](OC(C)=O)[C@@H]12					>100 µM
O=C1c2c(ccc(O)c2O)CN1Cc1ccccc1F			strand transfer		34.59 µM
O=C1Sc2ccccc2C(=O)N2CS(=O)CC12	RF		3′ processing		192.5 µM
Cc1ccnc(NS(=O)(=O)c2ccc(N=Nc3cc4ccccc4c(C(=O)O)c3O)cc2)n1		Mn2+	3′ processing		18 µM
Cc1cc(O)c(C=O)c2c1C(=O)Oc1c(CO)c(O)c3c(c1O2)C(O)OC3=O			strand transfer		48.5–55 µM
O=C1c2ccc(O)c(O)c2C(=O)N1Cc1cccc(CO)c1			strand transfer		2.1 µM
COC(=O)/C(C)=C1\C(=O)O[C@]2(C)[C@H]([C@H]1O)[C@@](C)(CO)[C@@H]1C[C@@H]12					>100 µM
Cc1ccc(C(=O)Nc2ccc3c(c2)c(C(C(=O)O)C(=O)O)cn3S(=O)(=O)c2ccc(C)cc2)cc1			strand transfer / fluorescence	Y143R	>25 µM
Oc1cc(O)c2c(c1)O[C@H](c1cc(O)c(O)c(O)c1)[C@@H](O)C2			3′ processing		412 µM
C=C1CC[C@H]2[C@](C)(CCC=C(C)C)[C@@H](OC(C)=O)CC[C@]2(C)[C@@H]1Cc1c(OC)oc(C)c(C)c1=O			absorbance		10 µM
O=C1c2c(ccc(O)c2O)CN1Cc1cccc(Br)c1			strand transfer		3.3 µM
Oc1cc2c(cc1O)C1c3ccc(O)c(O)c3OCC1(O)C2	HXB2		strand transfer / radiometric		0.5 µM
O=C(O)C(C(=O)O)c1c[nH]c2ccc([N+](=O)[O-])cc12			strand transfer / fluorescence		24.5 µM
O=c1[nH]c(=S)[nH]c2c1C(c1ccc(Cl)cc1)c1c([nH]c(=S)[nH]c1=O)O2			3′ processing		0.9 µM
O=c1[nH]cc(N=Nc2ccc(S(=O)(=O)Nc3nccs3)cc2)cc1O		Mg2+	3′ processing		57 µM
CN(C)CCCNC(=O)c1cc(NC(=O)c2cc(NC(=O)c3cc(NC(=O)c4ncccc4C(=O)O)cn3C)cn2C)cn1C			disintegration		>100 µM
O=C1/C(=C/c2ccc([N+](=O)[O-])c(O)c2)CN(Cc2ccccc2)C/C1=C\c1ccc([N+](=O)[O-])c(O)c1			3′ processing		>100 µM
CN(C)CCCNC(=O)c1cc(NC(=O)c2cc(NC(=O)c3cc(NC(=O)c4ccc(C(=O)Nc5cc(C(=O)Nc6cc(C(=O)Nc7cc(C(=O)NCCCN(C)C)n(C)c7)n(C)c6)n(C)c5)cc4)cn3C)cn2C)cn1C			3′ processing		0.19 µM
O=C1Sc2ccc(Cl)cc2C(=O)N2CCSC12	RF		3′ processing		128 µM
COc1cc(O)c(C(=O)O)c(-c2cc(O)c(O)cc2C)c1			absorbance		19 µM
O=c1oc2ccccc2c(O)c1C(c1ccc(Cl)cc1)c1c(O)c2ccccc2oc1=O			3′ processing		27.4 µM
COc1nc(=O)[nH]c2c1C(c1ccc(Br)cc1)c1c(OC)nc(=O)[nH]c1O2			3′ processing		208 µM
CN(C)CCCNC(=O)c1cc(NC(=O)c2cc(NC(=O)c3cc(NC4C(=O)c5ccccc5C4=O)cn3C)cn2C)cn1C			3′ processing		33.3 µM
COc1c(O)ccc2c1-c1c3c(cc4c1[C@H](C2)N(C)CC4)OCO3					>100 µM
O=C(c1ccccc1)c1cccc(CN2C(=O)c3ccc(O)c(O)c3C2=O)c1			3′ processing		300 µM
C=C1C2[C@@H](O)C3=C(C)C(=O)OC3([C@@]34C[C@]5(C)C(C(=C)[C@H]6C[C@H]65)[C@@H](O)C3=C(C)C(=O)O4)C[C@@]2(C)[C@@H]2C[C@H]12					>100 µM
O=C1c2c(ccc(O)c2O)CN1Cc1cccc(Cl)c1F			strand transfer		1.7 µM
O=C(NCc1ccc(F)cc1)c1nc(N2CCCCS2(=O)=O)c2cccnc2c1O			3′ processing		0.25 µM
CN(C)CCCNC(=O)c1cc(NC(=O)c2cc(NC(=O)c3cc(NC(=O)c4ccc(C(=O)Nc5cc(C(=O)Nc6cc(C(=O)Nc7cc(C(=O)NCCCN(C)C)n(C)c7)n(C)c6)n(C)c5)nc4)cn3C)cn2C)cn1C			disintegration		0.18 µM
O=c1oc2ccccc2c(O)c1C(c1ccc(C(c2c(O)c3ccccc3oc2=O)c2c(O)c3ccccc3oc2=O)cc1)c1c(O)c2ccccc2oc1=O			strand transfer		0.4 µM
Oc1ccc2c(c1)OC[C@]1(O)Cc3cc(O)c(O)cc3[C@H]21	HXB2		strand transfer / radiometric		35 µM
Cc1cc2nc3nc(N)nc(NS(=O)(=O)c4cc(C)c(Cl)cc4S)n3c2cc1C					3.4 µM
CC1(C)OC(=O)/C(=C/C(=O)c2cn(Cc3cc(F)ccc3F)c3ccc(F)cc23)O1			strand transfer / fluorescence	G140S	12.8 µM
O=C1Sc2ccc(Cl)cc2C(=O)N2CS(=O)CC12	RF		strand transfer		240 µM
Cc1ccc(Nc2nc(NS(=O)(=O)c3cc(C)c(Cl)cc3S)n(C)n2)cc1					15.3 µM
Oc1c2c(cc3c1-c1c4c(cc5c1[C@H](C3)NCC5)OCO4)OCO2					>100 µM
O=C(O)c1cc2ccccc2c(N=Nc2ccc(S(=O)(=O)Nc3nccs3)cc2)c1O		Mn2+	3′ processing		24 µM
CC(O)/C=C/c1ccc2c(c1)c(C(=O)/C=C1\OC(C)(C)OC1=O)cn2Cc1ccc(F)cc1			strand transfer / fluorescence	Y143R	15.4 µM
CC(C)Oc1ccc(Cc2ccccc2)cc1C(=O)CC(=O)C(=O)O			3′ processing		4 µM
[N-]=[N+]=Nc1cn([C@H]2C[C@H](N=[N+]=[N-])[C@@H](COP(=O)(O)O)O2)c(=O)[nH]c1=O			strand transfer		50 µM
CN(C)CCCNC(=O)c1cc(NC(=O)c2cc(NC(=O)c3cc(NC(=O)c4ccccc4C(=O)O)cn3C)cn2C)cn1C			disintegration		>100 µM
CCOC(=O)C(C(=O)OCC)c1cn(Cc2cc(F)ccc2F)c2ccc(F)cc12			strand transfer / fluorescence		19.8 µM
O=S(=O)(O)c1cc(O)c(N=NC2S(=O)(=O)OCCOS2(=O)=O)c2ccccc12		Mg2+	3′ processing		>200 µM
CC(C)C[C@H](NC(=O)[C@@H](N)CC(=O)O)C(=O)NC(CCO)C(=O)ON[C@@H](Cc1cnc[nH]1)C(=O)N[C@@H](C)C(=O)N[C@@H](CCC(N)=O)C(=O)O			3′ processing		30 µM
O=C1c2ccccc2C(=O)c2c(O)ccc(O)c21			disintegration		>40 µM
Cc1ccc(S(=O)(=O)n2cc(C(C(=O)O)C(=O)O)c3cc(NC(=O)c4cc(F)c(F)c(F)c4)ccc32)cc1			strand transfer / fluorescence		>25 µM
O=C(O)c1cc(N=Nc2ccccc2C(=O)O)ccc1O			strand transfer		36.7–49.5 µM
CN1C(=O)C(c2cc(Cl)c(O)c(Cl)c2)NC(=O)[C@@H]2NC(=O)C(c3cc(Cl)c(O)c(Cl)c3)NC(=O)[C@H](NC(=O)C(=O)c3cc(Cl)c(O)c(Cl)c3)Cc3c[nH]c4cc(ccc34)-c3cc2cc(c3O)Oc2ccc(cc2)CC1C(=O)NC(C(=O)O)c1ccc(O)cc1			absorbance		0.2 µM
CN(C)CCCNC(=O)c1cc(NC(=O)c2cc(NC(=O)c3cc(NC(=O)c4cnccc4C(=O)O)cn3C)cn2C)cn1C			3′ processing		>100 µM
CC(C)(C)C(=O)c1sc(C(=O)NCc2ccccc2)c(O)c1O			3′ processing		12.5 µM
CC(C)=C[C@H]1C[C@H](C)[C@]2(CC[C@]3(C)C[C@H]4[C@H](C(=O)C[C@@]4(C)O)C(C=O)=C[C@H]32)O1			strand transfer		>125 µM
Cc1ccc(S(=O)(=O)n2cc(/C(O)=C/C(=O)C(=O)O)c3cc(F)ccc32)cc1			strand transfer / fluorescence	G140S	6.7 µM
Cc1cc(S(=O)(=O)/N=C(/NN)NNc2cccc(C(F)(F)F)n2)c(S)cc1Cl					124.6 µM
Nc1ccn(C2C[C@H](O)[C@@H](COP(=O)(O)O[C@H]3[C@H](n4cnc5c(N)ncnc54)CO[C@@H]3COP(=O)(O)O)O2)c(=O)n1			strand transfer		25 µM
O=C1NC(=O)c2c1ccc(O)c2O			strand transfer		165 µM
O=C1NC(=S)NC(=O)C1=Cc1cc(O)c(O)c(O)c1			disintegration		2.1 µM
O=c1[nH]cc(N=Nc2ccc(S(=O)(=O)Nc3ccccn3)cc2)cc1O		Mg2+	3′ processing		269 µM
O=C1OC[C@@H]2[C@@H](c3ccc(O)c(O)c3)c3cc(O)c(O)cc3C[C@H]12	HXB2		strand transfer / radiometric		0.5 µM
COc1cc2c(cc1O)C[C@@H]1NCCc3cc(O)c(OC)c-2c31					7.7 µM
O=C1c2c(ccc(O)c2O)CN1Cc1cccc(Cl)c1			3′ processing		72 µM
O=C(c1ccc(O)cc1O)C1C(c2ccc(O)cc2)OC(c2ccc(O)cc2)C1C(=O)c1ccc(O)cc1O			strand transfer		31.7–93.4 µM

Again, the opening 7 rows:

compound	strain or isolate	conditions	method	mutations	value
O=C(O)c1ccc2ccc(/C=C/c3cc(O)c(O)c(O)c3)nc2c1O			disintegration		1 µM
Cc1cc(S(=O)(=O)Nc2nnc3ccc4ccccc4n23)c(S)cc1Cl					10.4 µM
COc1cc2c(cc1OC)C(=O)N1CSCC1C(=O)S2	RF		3′ processing		650 µM
O=C1OC[C@H]2[C@H](c3ccc(O)c(O)c3)c3cc(O)c(O)cc3C[C@H]12	HXB2		strand transfer		0.3 µM
CCOC(=O)c1cnc(NCCCCCCNc2ncc(C(=O)OCC)c(=O)[nH]2)[nH]c1=O			strand transfer		7.9–16.7 µM
COc1nc(=O)[nH]c2c1C(c1ccc(Cl)cc1)c1c(OC)nc(=O)[nH]c1O2			3′ processing		143.7 µM
CCCCC[C@H]1C(C)=C[C@H]2C[C@@H](C)CC[C@@H]2[C@@]1(C)/C(O)=C1/C(=O)[C@@H](CO)N(C)C1=O			strand transfer		7–15 µM